From paper PMC7477763

Chains of the proteins cited; added tags and fusions are not shown.
UniProt P0CG48, whole entry, looked up: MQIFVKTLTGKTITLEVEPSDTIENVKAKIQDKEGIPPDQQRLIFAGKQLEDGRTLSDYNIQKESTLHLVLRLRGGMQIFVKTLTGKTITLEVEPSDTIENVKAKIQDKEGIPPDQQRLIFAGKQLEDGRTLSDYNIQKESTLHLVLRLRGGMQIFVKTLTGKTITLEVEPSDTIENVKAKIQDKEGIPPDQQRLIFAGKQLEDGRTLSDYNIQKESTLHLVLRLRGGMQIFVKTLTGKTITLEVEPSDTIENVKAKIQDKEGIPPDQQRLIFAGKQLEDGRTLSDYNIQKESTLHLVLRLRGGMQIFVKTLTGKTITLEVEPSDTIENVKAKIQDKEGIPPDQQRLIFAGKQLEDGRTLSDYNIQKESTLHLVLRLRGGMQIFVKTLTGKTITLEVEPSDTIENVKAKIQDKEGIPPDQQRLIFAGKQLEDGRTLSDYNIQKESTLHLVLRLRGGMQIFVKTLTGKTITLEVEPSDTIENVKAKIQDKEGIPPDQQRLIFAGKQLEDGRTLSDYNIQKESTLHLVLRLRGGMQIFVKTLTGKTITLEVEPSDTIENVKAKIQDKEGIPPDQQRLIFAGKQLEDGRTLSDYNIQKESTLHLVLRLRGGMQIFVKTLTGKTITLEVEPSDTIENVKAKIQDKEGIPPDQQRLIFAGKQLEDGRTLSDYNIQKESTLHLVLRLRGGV

Target: B-Ub-VME (biotin-6-Ahx-Ub-VME activity-based probe) (UniProt P0CG48)

## Middle East respiratory syndrome papain-like protease (MERS PLpro), recombinant
  kobs/I: 7660 ± 475 M^–1 s^–1
